Literature values as cited in publication PMC3511042 (Beilstein Journal of Organic Chemistry, 2012).

Assays:
RNA-polymerases I = system: RNA-polymerases I; design: method as in PMID 5344598; settings: cited from earlier work
RNA-polymerases III = system: RNA-polymerases III; design: method as in PMID 5344598; settings: cited from earlier work

Structure (SMILES): CC[C@H](C)[C@@H]1NC(=O)CNC(=O)[C@@H]2Cc3c([nH]c4cc(O)ccc34)[S@+]([O-])C[C@H](NC(=O)CNC1=O)C(=O)N[C@@H](CC(N)=O)C(=O)N1C[C@H](O)C[C@H]1C(=O)N[C@@H]([C@@H](C)[C@@H](O)CO)C(=O)N2 [compound 4, α-amanitin]
- inhibition of RNA-polymerases I (RNA-polymerases I): not inhibited at all
- concentration for inhibition of RNA-polymerases III relative to RNA-polymerases II (RNA-polymerases III): ca. 1000 times
